Measurements as given in US8435939B2 (priority 2000, dated 2013).

Test: general procedure: Fmoc solid-phase peptide synthesis; Fmoc-NH-SAL resin
Details: whole synthesis, scale 1 mmole, one disulfide bridge, sequence written open

## H-Arg-Arg-Nal-Cys-Tyr-Arg-Lys-DCit-Pro-Tyr-Arg-Cit-Cys-Arg-NH2
  isolated mass: 1.432 g
  isolated yield: 59%
